Test system: human primary fibroblasts (cell line AB943)
Assay: Cytotoxicity evaluation (resazurin) and selectivity index
Type: cell-based
Details: SI = IC50 (AB943)/IC50 (P.f. FcB1)

Structure (SMILES): CCN(CC)CCCC(C)Nc1ccnc2cc(Cl)ccc12 (stereo not shown) [CQ, Chloroquine, reference compound]
- SI: 347
